How the values were obtained:
[1] = test system: cecal microbiota of chickens; experiment: Effect of GIs on cecal microbiota of chickens (16S rRNA metagenomics); format: in vivo
[2] = test system: serum metabolites of chickens; experiment: Effect of GIs on serum metabolome of chickens (LC-MS); format: in vivo; settings: vs NC chickens
[3] = family level, individual animal 1 of group
[4] = family level, individual animal 2 of group
[5] = family level, individual animal 3 of group
[6] = family level, individual animal 4 of group
[7] = family level, individual animal 5 of group

CC(=O)OC(C(Br)C(=O)c1ccc([N+](=O)[O-])cc1)C(Cl)(Cl)Cl (centres unmarked) [GI-10]
Clostridia abundance ([1]; cecum, class level, printed as change 77% to 49%): 49%
Lachnospiraceae population ([1]; cecum, family level, printed as change 68% to 36%): 36%
Clostridiales abundance ([1]; cecum, order level, printed as change 77% to 49%): 49%
Proteobacteria abundance ([1]; cecum, phylum level, printed as change 11% to 29%): 29%
Firmicutes abundance ([1]; cecum, phylum level, printed as change 89% to 71%): 71%
Relative abundance (%) Bacillaceae [1, 3]: 3.2%
Relative abundance (%) Bifidobacteriaceae [1, 3]: 0.0%
Relative abundance (%) Clostridiaceae 1 [1, 3]: 0.0%
Relative abundance (%) Enterobacteriaceae [1, 3]: 17.1%
Relative abundance (%) Enterococcaceae [1, 3]: 0.0%
Relative abundance (%) Erysipelotrichaceae [1, 3]: 21.1%
Relative abundance (%) Lachnospiraceae [1, 3]: 40.2%
Relative abundance (%) Lactobacillaceae [1, 3]: 0.0%
Relative abundance (%) Non-Enterobacteriaceae Gammaproteobacteria [1, 3]: 0.0%
Relative abundance (%) Peptostreptococcaceae [1, 3]: 3.6%
Relative abundance (%) Ruminococcaceae [1, 3]: 14.6%
Relative abundance (%) Unassigned [1, 3]: 0.0%
Relative abundance (%) Bacillaceae [1, 4]: 0.0%
Relative abundance (%) Bifidobacteriaceae [1, 4]: 0.0%
Relative abundance (%) Clostridiaceae 1 [1, 4]: 0.0%
Relative abundance (%) Enterobacteriaceae [1, 4]: 7.3%
Relative abundance (%) Enterococcaceae [1, 4]: 0.0%
Relative abundance (%) Erysipelotrichaceae [1, 4]: 33.5%
Relative abundance (%) Lachnospiraceae [1, 4]: 54.6%
Relative abundance (%) Lactobacillaceae [1, 4]: 0.0%
Relative abundance (%) Non-Enterobacteriaceae Gammaproteobacteria [1, 4]: 0.0%
Relative abundance (%) Peptostreptococcaceae [1, 4]: 0.0%
Relative abundance (%) Ruminococcaceae [1, 4]: 4.4%
Relative abundance (%) Unassigned [1, 4]: 0.0%
Relative abundance (%) Bacillaceae [1, 5]: 3.3%
Relative abundance (%) Bifidobacteriaceae [1, 5]: 0.3%
Relative abundance (%) Clostridiaceae 1 [1, 5]: 0.0%
Relative abundance (%) Enterobacteriaceae [1, 5]: 54.9%
Relative abundance (%) Enterococcaceae [1, 5]: 0.0%
Relative abundance (%) Erysipelotrichaceae [1, 5]: 23.0%
Relative abundance (%) Lachnospiraceae [1, 5]: 13.4%
Relative abundance (%) Lactobacillaceae [1, 5]: 0.0%
Relative abundance (%) Non-Enterobacteriaceae Gammaproteobacteria [1, 5]: 0.0%
Relative abundance (%) Peptostreptococcaceae [1, 5]: 0.0%
Relative abundance (%) Ruminococcaceae [1, 5]: 4.8%
Relative abundance (%) Unassigned [1, 5]: 0.0%
Relative abundance (%) Bacillaceae [1, 6]: 0.0%
Relative abundance (%) Bifidobacteriaceae [1, 6]: 0.0%
Relative abundance (%) Clostridiaceae 1 [1, 6]: 1.4%
Relative abundance (%) Enterobacteriaceae [1, 6]: 26.8%
Relative abundance (%) Enterococcaceae [1, 6]: 0.0%
Relative abundance (%) Erysipelotrichaceae [1, 6]: 8.0%
Relative abundance (%) Lachnospiraceae [1, 6]: 46.8%
Relative abundance (%) Lactobacillaceae [1, 6]: 4.9%
Relative abundance (%) Non-Enterobacteriaceae Gammaproteobacteria [1, 6]: 0.0%
Relative abundance (%) Peptostreptococcaceae [1, 6]: 0.0%
Relative abundance (%) Ruminococcaceae [1, 6]: 11.8%
Relative abundance (%) Unassigned [1, 6]: 0.1%
Relative abundance (%) Bacillaceae [1, 7]: 8.2%
Relative abundance (%) Bifidobacteriaceae [1, 7]: 0.0%
Relative abundance (%) Clostridiaceae 1 [1, 7]: 0.0%
Relative abundance (%) Enterobacteriaceae [1, 7]: 38.4%
Relative abundance (%) Enterococcaceae [1, 7]: 0.0%
Relative abundance (%) Erysipelotrichaceae [1, 7]: 0.0%
Relative abundance (%) Lachnospiraceae [1, 7]: 25.3%
Relative abundance (%) Lactobacillaceae [1, 7]: 4.5%
Relative abundance (%) Non-Enterobacteriaceae Gammaproteobacteria [1, 7]: 0.0%
Relative abundance (%) Peptostreptococcaceae [1, 7]: 0.0%
Relative abundance (%) Ruminococcaceae [1, 7]: 23.4%
Relative abundance (%) Unassigned [1, 7]: 0.0%
Abundance (%) in cecal microbiota: Anaerostipes ([1]; genus level): 1.4%
Abundance (%) in cecal microbiota: Anaerotruncus ([1]; genus level): 0.0%
Abundance (%) in cecal microbiota: Bacillus ([1]; genus level): 3.0%
Abundance (%) in cecal microbiota: Bifidobacterium ([1]; genus level): 0.1%
Abundance (%) in cecal microbiota: Blautia ([1]; genus level): 0.0%
Abundance (%) in cecal microbiota: Butyricicoccus ([1]; genus level): 0.0%
Abundance (%) in cecal microbiota: CAG-56 ([1]; genus level): 0.7%
Abundance (%) in cecal microbiota: Caproiciproducens ([1]; genus level): 0.3%
Abundance (%) in cecal microbiota: Clostridioides ([1]; genus level): 0.7%
Abundance (%) in cecal microbiota: Clostridium sensu stricto 1 ([1]; genus level): 0.3%
Abundance (%) in cecal microbiota: Enterococcus ([1]; genus level): 0.0%
Abundance (%) in cecal microbiota: Erysipelatoclostridium ([1]; genus level): 1.1%
Abundance (%) in cecal microbiota: Escherichia -Shigella ([1]; genus level): 26.6%
Abundance (%) in cecal microbiota: Flavonifractor ([1]; genus level): 7.7%
Abundance (%) in cecal microbiota: Lachnoclostridium ([1]; genus level): 8.1%
Abundance (%) in cecal microbiota: Lactobacillus ([1]; genus level): 1.9%
Abundance (%) in cecal microbiota: Negativibacillus ([1]; genus level): 1.6%
Abundance (%) in cecal microbiota: Oscillibacter ([1]; genus level): 0.8%
Abundance (%) in cecal microbiota: Ruminiclostridium 9 ([1]; genus level): 0.0%
Abundance (%) in cecal microbiota: Ruminococcaceae UCG-005 ([1]; genus level): 0.0%
Abundance (%) in cecal microbiota: Ruminococcaceae UCG-014 ([1]; genus level): 0.4%
Abundance (%) in cecal microbiota: Sellimonas ([1]; genus level): 0.0%
Abundance (%) in cecal microbiota: Shuttleworthia ([1]; genus level): 0.0%
Abundance (%) in cecal microbiota: Tyzzerella ([1]; genus level): 0.4%
Abundance (%) in cecal microbiota: UBA1819 ([1]; genus level): 1.1%
Abundance (%) in cecal microbiota: [Clostridium] inoculum group ([1]; genus level): 2.8%
Abundance (%) in cecal microbiota: [Eubacterium] coprostanoligenes group ([1]; genus level): 0.0%
Abundance (%) in cecal microbiota: [Ruminococcus] gauvreauii group ([1]; genus level): 0.03%
Abundance (%) in cecal microbiota: [Ruminococcus] torques group ([1]; genus level): 13.9%
Microbial richness ([1]; vs GI-7-treated, PC and NC groups, P < 0.05): higher
Fold change: 2-Oxo-butanote [2]: 2.9
Fold change: 2′-Deoxyinosine [2]: 1.3
Fold change: 3-Mercaptopyruvate [2]: 1.9
Fold change: 3-Methoxy-4-hydroxyphenylglycoaldehyde [2]: 1.3
Fold change: 4-(3-Pyridyl)-butanoate [2]: 1.9
Fold change: 4-Hydroxy-4-(3-pyridyl)-butanoate [2]: 1.3
Fold change: 4-Imidazolacetate [2]: 1.3
Fold change: 4S-Hydroperoxy,17R-H-docosahexaenoate [2]: 1.2
Fold change: 5-Amino-1-(5-phospho-D-ribosyl)imidiazole-4-carboxamide [2]: 3.3
Fold change: 7S-Hydroperoxy,17R-H-docosahexaenoate [2]: 1.2
Fold change: (S)-Methylmalonate-semialdehyde [2]: 2.9
Fold change: Acetoacetate [2]: 2.9
Fold change: Aspirin triggered resolvin D4 [2]: 1.2
Fold change: Aspirin-triggered resolvin D1 [2]: 1.2
Fold change: Aspirin-triggered resolvin D2 [2]: 1.2
Fold change: Aspirin-triggered resolvin D3 [2]: 1.2
Fold change: Coproporphyrinogen III [2]: 2.9
Fold change: Cytidine [2]: 2.6
Fold change: D-Sorbitol [2]: 1.3
Fold change: Geranyl diphosphate [2]: 5.4
Fold change: Homovanillate [2]: 1.3
Fold change: IMP [2]: 1.6
Fold change: Inosine [2]: 2.4
Fold change: L-Arginine [2]: 2.7
Fold change: L-Lysine [2]: 2.2
Fold change: Nicotine-glucuronide [2]: 1.5
Fold change: Sucrose [2]: 2.6
Fold change: Thymine [2]: 1.3
Fold change: Thyronamine [2]: 2.4
Fold change: Uracil [2]: 1.6
Fold change: Urate [2]: 3.0
Fold change: Xanthine [2]: 3.7
Fold change: Xanthosine [2]: 5.6
Fold change: α,α-Trehalose [2]: 2.6
Fold change: β-Nicotinate D-ribonucleotide [2]: 5.4
Fold change: L-Saccharopine ([2]; first listing in Table 3): 3.0
